Anti-infective test results gathered from many reports (values: NIAID ChemDB through PubChem).

Shared fields: growth or infection tests; species: HIV-1

ECn: concentration that inhibits the pathogen or its effect by n%. Fold resistance has wild type as its base. Rows are shuffled and stem from different studies. a–b is a range or a potency band. Blank or dashed fields: not listed here.

{"smiles": "COc1ccc(S(=O)(=O)N(CC(C)C)C[C@@H](O)CC(=O)N2CCN(Cc3cccnc3)C[C@H]2C(=O)NC(C)(C)C)cc1", "strain or isolate": "IIIB", "cells": "CEM", "method": "p24", "measure": "EC90", "result": "1 µM"}
{"smiles": "Cc1ccc(C)n1-c1ccc(C(=O)O)c(O)c1", "strain or isolate": "IIIB X4 CLADE B", "cells": "MT-2", "method": "p24", "measure": "EC90", "result": "2.81 µM"}
{"smiles": "CC(C)[C@H](NC(=O)OCc1ccccn1)C(=O)N[C@@H](Cc1ccccc1)[C@@H](O)C[C@H](Cc1ccccc1)NC(=O)OCc1cccnc1", "strain or isolate": "NL4-3", "changes": "PR-L63P V82T", "cells": "MT-4", "method": "p24", "measure": "EC95", "result": "1.5 µM"}
{"smiles": "Cc1cc(OCCCS(N)(=O)=O)ccc1NC(=O)COc1ccc(Cl)cc1C(=O)c1cc(F)cc(C(F)(F)F)c1", "strain or isolate": "HXB2", "changes": "RT-G190A", "cells": "HeLa + HELA CD4+", "method": "β-galactosidase", "measure": "fold resistance", "result": "~1"}
{"smiles": "CC(C)=CCOc1cc(NC(=S)c2ccsc2C)ccc1Cl", "strain or isolate": "4XAZT+Y181C (RT D67N K70R Y181C T215Y K219Q)", "changes": "RT-Y181C", "cells": "CEM + CEM-SS", "method": "p24", "measure": "EC50", "result": "0.1 µM"}
{"smiles": "CC(C)CN(CCC(O)CN1CSC[C@H]1C(=O)NC(C)(C)C)S(=O)(=O)c1ccccc1", "strain or isolate": "IIIB", "cells": "CEM", "method": "p24", "measure": "EC90", "result": "1 µM"}
{"smiles": "CC(C)=CCOc1cc(NC(=S)c2ccoc2C)ccc1Cl", "strain or isolate": "NL4-3 (RT L74V)", "changes": "RT-L74V", "cells": "CEM + CEM-SS", "method": "cytopathic effect / XTT", "measure": "fold resistance", "result": "1"}
{"smiles": "CN(C)CC1c2nc(C(=O)NCc3ccc(F)cc3)c(O)c(=O)n2CCN1C", "cells": "MT-4", "method": "p24", "measure": "EC95", "result": "1–10 µM"}
{"smiles": "CC(C)CN(CC(O)CCN(CC1CCCC1)S(=O)(=O)c1ccc(O)cc1)S(=O)(=O)c1ccccc1", "strain or isolate": "IIIB", "cells": "CEM", "method": "p24", "measure": "EC90", "result": "1 µM"}
{"smiles": "COc1ccnc2[nH]cc(C(=O)C(=O)N3C4CCCC3CN(C(=O)c3ccccc3)C4)c12", "strain or isolate": "6535", "cells": "TZM-bl", "method": "luciferase", "measure": "EC99", "result": "22 µM"}
{"smiles": "Cc1cc(C)cc(C(=O)c2cc(Cl)ccc2OCC(=O)Nc2ccc(S(N)(=O)=O)cc2C)c1", "strain or isolate": "HXB2", "changes": "RT-K103N", "cells": "HeLa + HELA CD4+", "method": "β-galactosidase", "measure": "fold resistance", "result": "~1"}
{"smiles": "O=C(NC(Cc1ccccc1)C(=O)C(=O)C(=O)N(CC1CCCC1)S(=O)(=O)c1ccccc1)O[C@H]1CCOC1", "strain or isolate": "IIIB", "cells": "CEM", "method": "p24", "measure": "EC90", "result": "1 µM"}
{"smiles": "CCC(=O)c1ccc(F)c([C@@H]2C[C@@H]2NC(=O)Nc2ccc(C#N)cn2)c1O", "strain or isolate": "LAI", "changes": "NNRTI-resistant (RT F227L)", "cells": "TZM-bl", "method": "β-galactosidase / luminescence", "measure": "fold resistance", "result": "1.3"}
{"smiles": "O=C1Nc2ccc(Cl)cc2[C@@](C#CC2CC2)(C(F)(F)F)N1", "changes": "RT-K103N V108I", "measure": "EC90", "result": "~0.04 µM"}
{"smiles": "COc1ccc(S(=O)(=O)N(CC(C)C)C[C@@H](O)CCN(CC2CCCC2)S(=O)(=O)c2ccc3nc[nH]c3c2)cc1", "strain or isolate": "IIIB", "cells": "CEM", "method": "p24", "measure": "EC90", "result": "1 µM"}
{"smiles": "Cc1cc2cn[nH]c2cc1NC(=O)COc1ccc(Cl)cc1C(=O)c1cccc(C#N)c1", "strain or isolate": "HXB2", "changes": "RT-G190A", "cells": "HeLa + HELA CD4+", "method": "β-galactosidase", "measure": "fold resistance", "result": "~1"}
{"smiles": "COc1ccc(S(=O)(=O)N(CC2CCCC2)C[C@@H](O)CN(CC(C)C)C(=O)O[C@H]2CCOC2)cc1", "strain or isolate": "IIIB", "cells": "CEM", "method": "p24", "measure": "EC90", "result": "1 µM"}
{"smiles": "COc1ccnc2[nH]cc(C(=O)C(=O)N3CCN(C(=O)c4ccccc4)C[C@H]3C)c12", "strain or isolate": "AC10", "cells": "TZM-bl", "method": "luciferase", "measure": "EC99", "result": "1.4 µM"}
{"smiles": "Cc1cc(C#N)cc(C(=O)c2cc(Cl)ccc2OCC(=O)Nc2ccc(S(N)(=O)=O)nc2C)c1", "strain or isolate": "HXB2", "changes": "RT-V108I Y181C", "cells": "HeLa + HELA CD4+", "method": "β-galactosidase", "measure": "fold resistance", "result": "~1"}
{"smiles": "Cn1nnnc1CN1CCn2c(nc(C(=O)NCc3ccc(F)cc3)c(O)c2=O)C1(C)C", "cells": "MT-4", "method": "p24", "measure": "EC95", "result": "<1 µM"}
{"smiles": "Cc1cc(S(N)(=O)=O)ccc1NC(=O)COc1ccc(Cl)cc1C(=O)c1cccc(C#N)c1", "strain or isolate": "HXB2", "changes": "RT-V106A", "cells": "HeLa + HELA CD4+", "method": "β-galactosidase", "measure": "fold resistance", "result": "~10"}
{"smiles": "CC(C)=CCN1Cc2cccc3[nH]c(=O)n(c23)CC1C", "strain or isolate": "UC040-R (RT-Y181C)", "changes": "RT-Y181C", "cells": "CEM + CEM-SS", "method": "cytopathic effect / XTT", "measure": "fold resistance", "result": "20"}
{"smiles": "Cc1cc(S(N)(=O)=O)ccc1NC(=O)COc1ccc(Cl)cc1C(=O)c1cc(Cl)cc(C#N)c1", "strain or isolate": "HXB2", "changes": "RT-V106I Y181C", "cells": "HeLa + HELA CD4+", "method": "β-galactosidase", "measure": "fold resistance", "result": "~10"}
{"smiles": "CNC(=O)c1cc(F)ccc1CNC(=O)c1nc2n(c(=O)c1O)CCN(C)C2(C)C", "cells": "MT-4", "method": "p24", "measure": "EC95", "result": "<1 µM"}
{"smiles": "O=C1Nc2ccc(F)c(F)c2[C@@](/C=C/C2CC2)(C(F)(F)F)N1", "changes": "RT-V106A", "measure": "EC90", "result": "<0.012 µM"}
{"smiles": "Nc1cccc(S(=O)(=O)N(CC2CCCC2)C[C@@H](O)CN(CCc2ccccc2)CC(=O)c2ccccc2)c1", "strain or isolate": "IIIB", "cells": "CEM", "method": "p24", "measure": "EC90", "result": "1 µM"}
{"smiles": "Cc1cc(Cl)cc(C(=O)c2cc(Cl)ccc2OCC(=O)Nc2ccc(S(N)(=O)=O)cc2C)c1", "strain or isolate": "HXB2", "changes": "RT-V106A Y181C", "cells": "HeLa + HELA CD4+", "method": "β-galactosidase", "measure": "fold resistance", "result": "~10"}
{"smiles": "Cc1cnc(NC(=O)NC(C)(C)C)n1CC(O)CN(CC(C)C)S(=O)(=O)c1ccccc1", "strain or isolate": "IIIB", "cells": "CEM", "method": "p24", "measure": "EC90", "result": "1 µM"}
{"smiles": "CCNC(=O)N1CCn2c(nc(C(=O)NCc3ccc(F)cc3)c(O)c2=O)C1(C)C", "cells": "MT-4", "method": "p24", "measure": "EC95", "result": "<1 µM"}
{"smiles": "COc1ccc(S(=O)(=O)N(CC2CCCC2)CC(F)(F)C(=O)[C@@H](Cc2ccccc2)NC(=O)O[C@H]2CCOC2)cc1", "strain or isolate": "IIIB", "cells": "CEM", "method": "p24", "measure": "EC90", "result": "1 µM"}
{"smiles": "CC(C)=CCOc1cc(NC(=S)c2ccsc2C)ccc1Cl", "strain or isolate": "NL4-3 (RT K101E)", "changes": "RT-K101E", "cells": "CEM + CEM-SS", "method": "cytopathic effect / XTT", "measure": "fold resistance", "result": "1"}
{"smiles": "Cn1nccc1CN1CCn2c(nc(C(=O)NCc3ccc(F)cc3)c(O)c2=O)C1(C)C", "cells": "MT-4", "method": "p24", "measure": "EC95", "result": "<1 µM"}

For reference, 2 entries again:

| smiles | strain or isolate | changes | cells | method | measure | result |
|---|---|---|---|---|---|---|
| CC(C)[C@H](NC(=O)OCc1ccccn1)C(=O)N[C@@H](Cc1ccccc1)[C@@H](O)C[C@H](Cc1ccccc1)NC(=O)OCc1cccnc1 | NL4-3 | PR-L63P V82T | MT-4 | p24 | EC95 | 1.5 µM |
| COc1ccnc2[nH]cc(C(=O)C(=O)N3CCN(C(=O)c4ccccc4)C[C@H]3C)c12 | AC10 |  | TZM-bl | luciferase | EC99 | 1.4 µM |